Compound potency records, mixed from different reports. Data source: NIAID ChemDB in PubChem.

All rows: tests in culture; agent: Mycobacterium tuberculosis

An empty or dashed field is not shown. MIC bound comes from a single tested concentration. A number after MIC or MFC names an inhibition level or a share of isolates. Lines come from different laboratories, so protocols vary. Percent inhibition refers to the dose given; in toxicity tests it is the harm to the cells. ECn is the concentration giving n% inhibition of infection, replication or growth.

compound | strain or isolate | cell line | method | endpoint | tested at | value
CC1CC(C)C2Cc3c4c(cc5ccccc35)CCC4C2C1 | H37Rv | - | - | MIC | - | >100 µg/mL
c1cc(NCCNC23CC4CC(CC(C4)C2)C3)c2cccnc2c1 | - | - | - | MIC | - | 6.25 µM
CCOC(=O)Nc1cc2[nH]cnc2c(NC(c2ccccc2)c2ccccc2)n1 | H37Rv | - | - | inhibition | 12.5 µg/mL | 0%
O=C1C2Nc3ccccc3N=C2OC1c1cccc([N+](=O)[O-])c1 | H37Rv | - | BACTEC | MIC bound | - | >12.5 µg/mL
NC(=O)c1ccccc1Cl | H37Rv | - | - | MIC | - | >100 µg/mL
C=C1C2CC3C4N5C[C@@]6(C)CCC[C@@]47[C@@H]([C@@H]2O)C3(C[C@@]5(O)[C@@H]67)[C@H]1O | H37Rv | - | BACTEC | inhibition | 12.5 µg/mL | 0%
S=c1[nH][nH]c(=S)s1 | H37Rv | - | - | MIC | - | >100 µg/mL
Nc1c([N+](=O)[O-])ncn1[C@@H]1O[C@H](CO)[C@@H](O)[C@H]1O | H37Rv | - | resazurin | MIC bound | - | >6.25 µg/mL
c1ccc(OCCSCCOc2ccccc2)cc1 | H37Rv | - | - | MIC | - | >100 µg/mL
CCCCCCCCCCCNCCN[C@H](CO)Cc1ccc(Cl)cc1 | - | - | - | MIC | - | 25 µM
Cc1ccc(CNCCNC(C)Cc2c[nH]c3ccccc23)cc1 | - | - | - | MIC | - | 50 µM
O=C(O)/C=C/C=C/c1ccccc1 | H37Rv | - | - | MIC | - | 50 µg/mL
CO[C@H]1/C=C/O[C@@]2(C)Oc3c(C)c(O)c4c(O)c(c5c(c4c3C2=O)NC2(CCN(CC(C)C)CC2)N=5)=NC(=O)/C(C)=C\C=C\[C@H](C)[C@H](O)[C@@H](C)[C@@H](O)[C@@H](C)[C@H](OC(C)=O)[C@@H]1C | 2275 (rifampin-resistant) | - | - | MBC | - | 0.8 µg/mL
CCOC(=O)NC(N)=O | H37Rv | - | - | MIC | - | >100 µg/mL
CN(C)C1C(=O)C(C(N)=O)=C(O)C2(O)C(=O)C3=C(O)c4c(O)ccc(Cl)c4[C@](C)(O)[C@@H]3C[C@H]12.[Cl][Sb]([Cl])[Cl] | H37Rv | - | BACTEC | inhibition | 12.5 µg/mL | 43%
COc1ccc(C2Oc3c(I)cccc3C(=O)C2O)cc1 | - | - | - | EC50 | - | >12.5 µg/mL
CC[C@H]1OC(=O)[C@H](C)[C@@H](O[C@H]2C[C@@](C)(OC)[C@@H](O)[C@H](C)O2)[C@H](C)[C@@H](O[C@@H]2O[C@H](C)C[C@H](N(C)C)[C@H]2O)[C@](C)(O)C[C@@H](C)CN(C)[C@H](C)[C@@H](O)[C@]1(C)O | ATCC 35828 | - | - | MIC | - | >8 µg/mL
COc1cc(O)c(C(=O)/C=C/c2cc(OC)c(OC)c(OC)c2)c(O)c1 | - | - | - | EC50 | - | >12.5 µg/mL
CC[C@@H](CO)NCCN[C@@H](CC)CO | MDR23 | - | broth dilution / resazurin | MIC | - | 128 µg/mL
CC(CNCC(c1ccccc1)c1ccccc1)N[C@H]1C[C@H]2C[C@@H]([C@@H]1C)C2(C)C | - | - | - | MIC | - | 50 µM
CCOC(=O)c1nc(Cl)n(-c2ccc([N+](=O)[O-])cc2)n1 | H37Rv | - | - | MIC | - | >100 µg/mL
O=C1C=C(Nc2ccc(Br)cc2)c2ccccc2C1=O | H37Rv | - | resazurin | inhibition | 6.25 µg/mL | 100%
CCCCC(CC)CN1CN(CC(CC)CCCC)CC(C)(NCCN[C@H](CC)CO)C1 | - | - | - | MIC | - | 25 µM
Cc1ccc(C)c(N2C(=O)C(=O)C(c3nc4ccccc4s3)C(=Nc3cccc4c(=O)[nH][nH]c(=O)c34)C2=O)c1 | H37Rv | - | resazurin | MIC bound | - | >6.25 µg/mL
CC1(C)[C@H]2CC[C@@H](CNCCNCCCCc3ccccc3)[C@@H]1C2 | - | - | - | MIC | - | 50 µM
O=S(=O)([O-])c1cc(S(=O)(=O)[O-])c2cc([O-])ccc2c1.[Na+].[Na+].[Na+] | H37Rv | - | - | MIC | - | >100 µg/mL
O=C(/C=C/c1ccccc1)c1cc(I)ccc1O | - | - | - | EC50 | - | <12.5 µg/mL
CC(=O)NCCO | H37Rv | - | - | MIC | - | >100 µg/mL
CCOC(=O)Nc1cc(NCC(O)CN(C)C)c([N+](=O)[O-])c(N)n1 | H37Rv | - | - | EC50 | - | >12.5 µg/mL
COc1ccccc1CCNCCNCc1ccccc1F | - | - | - | MIC | - | 50 µM
CC(CNCCNCCCCc1ccccc1)c1ccccc1 | - | - | - | MIC | - | 25 µM
O=C1NC(=O)C(CCBr)N1 | H37Rv | - | - | MIC | - | >100 µg/mL
O=C1CC(c2ccccc2)Oc2cc(F)ccc21 | - | - | - | inhibition | 12.5 µg/mL | 7%
O=S(=O)(/N=C1C=C/C(=N\S(=O)(=O)c2ccccc2)c2ccccc2\1)c1ccccc1 | H37Rv | - | BACTEC | inhibition | 12.5 µg/mL | 20%
CCOC(=O)Nc1cc(NC(C)C(=O)c2ccc(O)cc2)c([N+](=O)[O-])c(N)n1 | H37Rv | - | - | EC50 | - | >12.5 µg/mL
CN[C@@H]1[C@H](O[C@H]2[C@H](O[C@H]3[C@H](O)[C@@H](O)[C@H](N=C(N)N)[C@@H](O)[C@@H]3N=C(N)N)O[C@@H](C)[C@]2(O)C=O)O[C@@H](CO)[C@H](O)[C@H]1O | TN810 (001/19) | - | - | MIC | - | >2 µg/mL
C/C(=C1/N=C(c2ccccc2)OC1=O)c1cccs1 | H37Rv | - | BACTEC | MIC | - | 6.25 µg/mL
COCCNCCNC[C@]1(C)CCC[C@]2(C)c3ccc(C(C)C)cc3CC[C@@H]12 | - | - | - | MIC | - | 12.5 µM
O=C(O)C(CCCCNc1ccc([N+](=O)[O-])cc1[N+](=O)[O-])Nc1ccc([N+](=O)[O-])cc1[N+](=O)[O-] | H37Rv | - | - | MIC | - | >100 µg/mL
COc1ccc(CCNCCNC[C@]2(C)CCC[C@]3(C)c4ccc(C(C)C)cc4CC[C@@H]23)cc1 | - | - | - | MIC | - | 25 µM
CC(=O)NNc1nc(C)cc(=O)[nH]1 | H37Rv | - | BACTEC | MIC bound | - | >12.5 µg/mL
CCCCCCCCCCCNCCNCCc1ccccc1F | - | - | - | MIC | - | 50 µM
C[C@H]1COc2c(N3CCN(C)CC3)c(F)cc3c(=O)c(C(=O)O)cn1c23 | ATCC35838 | - | - | MBC | - | 0.25 µg/mL
CCOC(=O)Nc1cc(N(C)/N=C/c2ccccc2)c([N+](=O)[O-])c(Cl)n1 | H37Rv | - | - | inhibition | 12.5 µg/mL | 0%
COc1ccccc1CCNCCNCCNc1ccccc1 | - | - | - | MIC | - | 50 µM
O=C(O)Cc1cccc2c(=O)c3ccccc3oc12 | H37Rv | - | BACTEC | MIC bound | - | >12.5 µg/mL
CC[C@H]1OC(=O)[C@H](C)[C@@H](O[C@H]2C[C@@](C)(OC)[C@@H](O)[C@H](C)O2)[C@H](C)[C@@H](O[C@@H]2O[C@H](C)C[C@H](N(C)C)[C@H]2O)[C@](C)(O)C[C@@H](C)C(=O)[C@H](C)[C@@H](O)[C@]1(C)O | ATCC35838 | - | - | MIC | - | >8 µg/mL
Clc1ccc(CCNCCNC2CCc3ccccc32)c(Cl)c1 | - | - | - | MIC | - | 50 µM
Cc1ccc(O)c(N)c1 | H37Rv | - | - | MIC | - | >100 µg/mL
Nc1ccc(C(=O)O)c(Cl)c1 | H37Rv | - | BACTEC | inhibition | 12.5 µg/mL | 7%
COc1ccc(C2CC(=O)c3cc(C(=O)O)ccc3O2)cc1 | - | - | - | inhibition | 12.5 µg/mL | 0%
CC[C@H]1OC(=O)[C@H](C)[C@@H](O[C@H]2C[C@@](C)(OC)[C@@H](O)[C@H](C)O2)[C@H](C)[C@@H](O[C@@H]2O[C@H](C)C[C@H](N(C)C)[C@H]2O)[C@](C)(OC)C[C@@H](C)C(=O)[C@H](C)[C@@H](O)[C@]1(C)O | Drug-resistant | - | - | MBC90 | - | >8 µg/mL
CC(=O)Nc1c(Cl)cc(Cl)c(O)c1Cl | H37Rv | - | - | MIC | - | >100 µg/mL
Cc1nn(C(=S)S)c(C)c1N=Nc1ccc(F)cc1 | H37Rv | - | BACTEC | MIC bound | - | >12.5 µg/mL
CCOC(=O)Nc1cc(N[C@@H](C)[C@H](O)c2ccccc2)c(N)c(N)n1 | H37Rv | VERO | - | MIC | - | 12.5 µg/mL
O=C(/C=C/c1ccccc1)c1cccc2ccccc12 | H37Rv | - | - | inhibition | 12.5 µg/mL | 37%
Oc1c(Cl)c2nc3ccccc3nc2c2ccccc12 | H37Rv | - | BACTEC | inhibition | 12.5 µg/mL | 99%
OCc1ccccc1Sc1ccccc1CNCCNCCC1=CCCCC1 | - | - | - | MIC | - | 12.5 µM
Nc1cccc2c(S(=O)(=O)O)ccc(O)c12 | H37Rv | - | - | MIC | - | >100 µg/mL
CCOC(=O)C1=C(Nc2ccc(Br)cc2)OC/C1=N\NC(=O)c1ccccc1O | H37Rv | - | BACTEC | inhibition | 12.5 µg/mL | 8%
CC1CC=C(C(=O)O)CC1 | H37Rv | - | - | MIC | - | >100 µg/mL
CCOC(=O)Nc1cc(NCc2ccc(S(N)(=O)=O)cc2)c2nc(-c3ccccc3)c(-c3ccccc3)nc2n1 | H37Rv | VERO | - | EC50 | - | <12.5 µg/mL
COc1cc2c(c([N+](=O)[O-])c1)NC(=O)CCS2 | H37Rv | - | BACTEC | MIC bound | - | >12.5 µg/mL
CO[C@H]1/C=C/O[C@@]2(C)Oc3c(C)c(O)c4c(=O)c(c5oc6cc(N7CCN(CC(C)C)CC7)cc(=O)c6nc5c4c3=C2O)NC(=O)/C(C)=C\C=C\[C@H](C)[C@H](O)[C@@H](C)[C@@H](O)[C@@H](C)[C@H](OC(C)=O)[C@@H]1C | 2749 (rifampin-sensitive) | - | - | MIC | - | 0.025 µg/mL
CNC(=O)Nc1ccc(C)c(Cl)c1 | H37Rv | - | BACTEC | MIC bound | - | >12.5 µg/mL
Br.CC(C(=O)c1ccccc1)N1CCCCC1 | H37Rv | - | - | MIC | - | 100 µg/mL
CCOC(=O)C(CC(C)C)NC(=O)c1cc(SC#N)c(C)c2c1Nc1c(c(C)c3oc(=O)c(C)nc3c1C(=O)NC(CC(C)C)C(=O)OCC)O2 | H37Rv | - | BACTEC | inhibition | 12.5 µg/mL | -30%
Nc1cccc(S(N)(=O)=O)c1 | H37Rv | - | - | MIC | - | >100 µg/mL
CCN1CCN(CC)C1=S | H37Rv | - | BACTEC | MIC bound | - | >12.5 µg/mL
CS(=O)(=O)c1cc(N)c2ncccc2c1 | H37Rv | - | - | MIC | - | >100 µg/mL
c1ccc(C(CNCCNCCCN2CCOCC2)c2ccccc2)cc1 | - | - | - | MIC | - | 25 µM
COc1c(/C=C/C=O)cc2c(c1OC)OCO2 | H37Rv | - | BACTEC | inhibition | 12.5 µg/mL | 42%
CCO[Si](OCC)(OCC)c1ccc(N(C)C)cc1 | H37Rv | - | - | MIC | - | >100 µg/mL
COC(=O)C1(C)CCc2c(OC)ccc(OC)c2C1=O | H37Rv | - | BACTEC | MIC bound | - | >12.5 µg/mL
Cc1cc(C)c(-c2cc(O)c3ccccc3c2O)c(C)c1 | H37Rv | - | - | MIC | - | 50 µg/mL

Repeating the final 6 entries:

compound	strain or isolate	cell line	method	endpoint	tested at	value
CS(=O)(=O)c1cc(N)c2ncccc2c1	H37Rv	-	-	MIC	-	>100 µg/mL
c1ccc(C(CNCCNCCCN2CCOCC2)c2ccccc2)cc1	-	-	-	MIC	-	25 µM
COc1c(/C=C/C=O)cc2c(c1OC)OCO2	H37Rv	-	BACTEC	inhibition	12.5 µg/mL	42%
CCO[Si](OCC)(OCC)c1ccc(N(C)C)cc1	H37Rv	-	-	MIC	-	>100 µg/mL
COC(=O)C1(C)CCc2c(OC)ccc(OC)c2C1=O	H37Rv	-	BACTEC	MIC bound	-	>12.5 µg/mL
Cc1cc(C)c(-c2cc(O)c3ccccc3c2O)c(C)c1	H37Rv	-	-	MIC	-	50 µg/mL